Measured values as given in publication PMC11790949, “A multiplex method for rapidly identifying viral protease inhibitors” (Molecular Systems Biology, 2025).

Sequences of proteins named here, by UniProt entry; tags and fusion partners are left off. Residues count along the entry.
UniProt Q83883, 1101-1281 limits assumed: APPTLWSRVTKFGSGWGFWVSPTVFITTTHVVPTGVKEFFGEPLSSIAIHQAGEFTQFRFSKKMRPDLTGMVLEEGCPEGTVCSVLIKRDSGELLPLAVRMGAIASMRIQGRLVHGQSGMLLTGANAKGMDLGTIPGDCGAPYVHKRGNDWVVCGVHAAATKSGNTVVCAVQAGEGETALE
UniProt P03313, 1541-1723 limits assumed: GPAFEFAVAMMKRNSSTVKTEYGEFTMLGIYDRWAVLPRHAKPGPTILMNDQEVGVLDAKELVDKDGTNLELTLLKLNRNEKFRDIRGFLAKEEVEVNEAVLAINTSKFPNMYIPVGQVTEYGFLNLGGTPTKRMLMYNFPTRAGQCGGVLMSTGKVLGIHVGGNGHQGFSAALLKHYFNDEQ
UniProt P04584, 514-612 limits assumed: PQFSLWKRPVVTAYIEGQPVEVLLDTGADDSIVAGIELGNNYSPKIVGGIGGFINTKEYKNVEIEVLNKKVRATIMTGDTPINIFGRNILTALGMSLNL

Columns and labels:
EMCV-3C = target: T1, EMCV-3C (Encephalomyocarditis virus, UniProt P03304); test: Yeast dose-response liquid growth assay (individual model); assay type: cell-based; conditions: EMCV-3C model; for Max relative growth: OD595 relative to lowest drug concentration
T1 sequence (P03304 1626-1830 limits assumed): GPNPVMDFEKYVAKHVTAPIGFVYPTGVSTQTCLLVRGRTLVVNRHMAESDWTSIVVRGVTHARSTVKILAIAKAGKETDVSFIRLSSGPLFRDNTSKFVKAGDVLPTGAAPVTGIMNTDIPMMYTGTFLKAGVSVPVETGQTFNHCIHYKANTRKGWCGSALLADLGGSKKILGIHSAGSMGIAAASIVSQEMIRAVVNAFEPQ

NWV-3CL = NWV-3CL (Norovirus, UniProt Q83883); test: as above; assay type: cell-based, Norwalk virus; conditions: NWV-3CL model
HCV-NS3-GS-NS4A = test: as above; assay type: cell-based
DENV-NS3-GS-NS2B = test: as above; assay type: cell-based, Dengue virus
LV-3CL = test: as above; assay type: cell-based, Lordsdale virus; conditions: LV-3CL model
CV-B3-3C = CV-B3-3C (Coxsackievirus B3, UniProt P03313); assay type: cell-based
LGTV-NS2B-GS-NS3 = assay type: cell-based, Langat virus
SV-A-3C = test: Yeast dose-response liquid growth assay (individual model); assay type: cell-based, Salivirus; conditions: SV-A-3C model; for Max relative growth: OD595 relative to lowest drug concentration
HIV-2-PR = HIV-2-PR (Human immunodeficiency virus type 2 subtype A, UniProt P04584); test: as above; assay type: cell-based; conditions: HIV-2-PR model; OD595 relative to lowest drug concentration
[1] = OD595 relative to lowest drug concentration

Question: For N#C/C(=C\c1cccnc1)c1ccc(Br)cc1 [NSC151262], which Max relative growth (EMCV-3C) is on record?
Answer: 2.359

Question: Which “Inhibitor / Validation (true or false inhibitor in individual yeast model)” value (shortened to “Inhibitor / Validation”) (NWV-3CL) does the source give for CCOC(=O)c1[nH]c(C(=O)O)c(OC(=O)CC)c1C [NSC13434] here?
Answer: FALSE

Question: What about the Max relative growth (NWV-3CL; [1]) of the same molecule?
Answer: 0.2328

Question: Which results are given for O=C(O)/C=C/C(=O)N1Cc2cc3ccccc3nc2C1 [NSC140899]?
Answer: Inhibitor / Validation (true or false inhibitor in individual yeast model) (HCV-NS3-GS-NS4A): FALSE; Max relative growth (HCV-NS3-GS-NS4A; [1]): 0.5051

Question: With COc1cc2c(=O)n3c4c(cccc4c2cc1OC)CC3 [NSC276736] as the molecule, how does the “Inhibitor / Validation” value (DENV-NS3-GS-NS2B) read?
Answer: FALSE

Question: What about the Max relative growth (DENV-NS3-GS-NS2B; [1]) of the same molecule?
Answer: 1.172

Question: Which results are given for Cc1ccc(Nc2nc(Cl)nc3ncn(C)c23)c(C)c1 [NSC19141]?
Answer: Inhibitor / Validation (true or false inhibitor in individual yeast model) (LV-3CL): FALSE; Max relative growth (LV-3CL; [1]): 0.7294

Question: CCc1cc(=O)oc2cc(OC(=O)c3ccco3)ccc12 [CB6728297] was tested. Which Max relative growth (CV-B3-3C) did it give?
Answer: 6.507

Question: How did the “Inhibitor / Validation” value (LGTV-NS2B-GS-NS3) turn out when N#Cc1c(N)nc(N)nc1Nc1ccc(Br)cc1 [NSC71866] was run?
Answer: FALSE

Question: And the Max relative growth (LGTV-NS2B-GS-NS3)?
Answer: 0.8872

Question: What about the “Inhibitor / Validation” value (SV-A-3C) of the same molecule?
Answer: FALSE

Question: And the Max relative growth (SV-A-3C)?
Answer: 0.4724

Question: Which results are given for Cc1cc2c(cc1C)N(C(=O)CCl)CC(=O)N2 [NSC138389]?
Answer: Inhibitor / Validation (true or false inhibitor in individual yeast model) (LGTV-NS2B-GS-NS3): FALSE; Max relative growth (LGTV-NS2B-GS-NS3): 0.4976

Question: For Clc1ccc2nc3ccccc3cc2c1 [NSC179818], which “Inhibitor / Validation” value (EMCV-3C) is on record?
Answer: FALSE

Question: And the Max relative growth (EMCV-3C)?
Answer: 1.075

Question: Which results are given for COc1cc(O)c(C(=O)/C=C/c2ccccc2)c(OC)c1 [NSC51351]?
Answer: Inhibitor / Validation (true or false inhibitor in individual yeast model) (SV-A-3C): FALSE; Max relative growth (SV-A-3C): 0.2581

Question: With Nc1ccc(Br)cc1Br [NSC88324] as the molecule, how does the Max relative growth (HIV-2-PR) read?
Answer: 1.769
